The entries are a selection whose mix differs from that of the whole data set. Calls of active or inactive are those of the source. Rule as the data show it: active = max response mostly above about 13% (no sharp cut-off); inactive = mostly below about 14%.
test: Cycloheximide Counterscreen for Small Molecule Inhibitors of Shiga Toxin; details: cell reporter, cycloheximide protein synthesis inhibition counterscreen; hits give high values; also: read at 38.3 µM for the half of the compounds with a filed dose; 0% is about no effect

SMILES	max response
Nc1cccc([As](=O)(O)c2ccccc2)c1	inactive: -2.16%
Cc1ccc(OCC(=O)OC2CN3CCC2CC3)cc1 (stereo not given)	inactive: -2.1%
O=[As](O)(c1cccs1)c1cccs1	inactive: 1.75%
O=P1(Nc2ccc(Br)cn2)COc2ccccc2OC1	inactive: 4.46%
O=P1(Nc2ncccn2)COc2ccccc2OC1	inactive: -3.79%
CN(C)C1(CNC(=O)c2ccc(S(C)(=O)=O)cc2)CCCCC1	inactive: -1.67%
O=C(/C=C/c1ccccc1)OC1CN2CCC1CC2 (stereo not given)	inactive: 13.8%
CC1CCC(C(C)C)C(OP(=O)(Nc2ccccn2)c2ccccc2)C1 (stereo not given)	inactive: -1.27%
Cc1ccc(C(=O)OC2CN3CCC2CC3)cc1 (stereo not given)	inactive: -9.14%
Cc1nn(-c2ccccc2)c2c1P(=O)(N1CCOCC1)N(C)C(c1ccccc1)=N2 (stereo not given)	inactive: -2.52%
CC(C)/C=N\N=C(\N)N[N+](=O)[O-]	inactive: 5.14%
CN(C(=O)Cc1ccc(Cl)c(Cl)c1)[C@@H]1CCCC[C@H]1N1CCCC1	inactive: -11.2%
O=[As](O)(c1ccccc1Br)c1ccccc1Br	inactive: 8.5%
CC(C)(C)C(=O)NC(Sc1ncccn1)C(Cl)(Cl)Cl (stereo not given)	inactive: 8.66%
Clc1n[nH]nc1-c1nn[nH][15n]1	inactive: -0.85%
CCOP(=O)(NC(=NC(C)c1ccccc1)NC(C)c1ccccc1)OCC (stereo not given)	inactive: 4.3%
O=P1(Nc2ccccn2)COc2ccccc2OC1	inactive: -2.38%
CCC1=CC2Cc3nc4ccc(Cl)cc4c(N)c3C(C1)C2 (stereo not given)	inactive: -5.22%
CCOP(=O)(Nc1ccc(C)cn1)OCC	inactive: 1.19%
CCOP(=O)(Nc1cccc2ccccc12)OCC	inactive: -3.84%
COc1cc(C2NCCC3(OCCO3)C2(C)C)cc(OC)c1OC (stereo not given)	inactive: -3.9%
Nc1cccc2c([As](=O)(O)O)cccc12	inactive: -3.66%
CCCOP(=S)(Nc1nc(N)cc(=O)[nH]1)OCCC	inactive: 0.135%
Cc1cccc(OCC(=O)OC2CN3CCC2CC3)c1 (stereo not given)	inactive: -3.65%
O=[As](O)(c1cccc(O)c1)c1cccc(O)c1	inactive: -2.82%
O=C(OC1CN2CCC1CC2)c1ccc(Cl)cc1 (stereo not given)	inactive: -2.8%
CS(=O)(=O)c1ccc(Cl)c(NC(=O)COC(=O)C(O)(c2ccccc2)c2ccccc2)c1	inactive: -0.935%
O=[As](O)(O)c1cccnc1	inactive: -0.709%
COc1cc(C(=O)NCC2(N3CCOCC3)CCCCC2)cc(Cl)c1OC(C)C	inactive: -0.753%
CCOP1(=S)c2c(C)nn(CCC#N)c2N=C(c2ccc(F)cc2)N1C (stereo not given)	inactive: 5.54%
